{"source": "patent US11279902B2", "about": "“Hyperprotonation cleaning, disinfection, and sterilization compositions and methods” (dated 2022)", "origin": "cited, not measured here", "test_system": "exotoxin production by gram-positive bacteria", "details": "at GML concentrations that do not inhibit bacterial growth", "data": [{"smiles": "CCCCCCCCCCCC(=O)OCC(O)CO", "note": "(stereo not shown)", "values": [{"measurement": "exotoxin production", "value": "inhibits exotoxin production"}]}]}
